Patent US9499601B2, “Molecular probe for sphingolipids” (Agency for Science, Technology and Research, priority 2006, dated 2016)

Test system: plasma membrane of SH-SY5Y neuroblastoma cells
Assay: Fluorescence Correlation Spectroscopy (FCS) diffusion time at the plasma membrane
Format: cell-based, human
Settings: untreated cells

CtxB-Alexa594
distribution of τDs (main range): > 30 ms

Some results come without the dose or concentration used.
